Values from PubChem BioAssay AID1224833 (University of Georgia, 2016)

Purpose: 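Host factors restraining rotavirus as candidate antiviral genes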 (primary screen)
Cells: monkey MA104 kidney cells
Knock-down reagent: siRNA pool against human genes, 50 nM
Time to read-out: 48 h knock-down before infection; read 24 h after infection
Challenge: infection with rotavirus strain RV3 two days after transfection; infectious dose for this stage not given
Measured: 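z-score of rotavirus antigen signal per well, from a fluorescent immunoassay, relative to non-targeting control wells on the same plate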
Direction: z-score vs non-targeting control: higher = more rotavirus replication than with non-targeting control
Rule for the call: In these data the active calls have z-score vs non-targeting control at about -1 or lower, or at about 1 or higher
Meaning of the calls: active = z-score beyond 1 either way; inactive = z-score within 1 of zero
The deposit covers about 12,000 reagents; this is a part drawn at random. Over the whole deposit, about 5,600 (46%) got an active call. 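Active calls cover z-scores past 1 in both directions, so they include lowered as well as raised rotavirus replication.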 No sequences are given here.

gene | z-score vs non-targeting control | outcome
H3C11 | 0.143 | inactive
FGF12 | 0.896 | inactive
NMS | -1.07 | active
GBA1 | 1.07 | active
NAA20 | 1.81 | active
SLC39A13 | -0.35 | inactive
DBNL | -1.32 | active
HELZ2 | 1.63 | active
SHOC2 | -0.716 | inactive
C1QB | -1.43 | active
SLC13A5 | 0.84 | inactive
DCAF8L1 | -1.12 | active
SH3TC1 | -0.434 | inactive
ARMCX6 | -1.52 | active
CFAP43 | -0.537 | inactive
NXPH1 | 0.131 | inactive
SDK2 | 2.12 | active
PRAMEF9 | -0.0836 | inactive
SPI1 | -0.618 | inactive
KLF6 | 1.13 | active
AGAP1 | 0.391 | inactive
ALAS2 | 0.504 | inactive
PIGN | 1.67 | active
SNX1 | -1.16 | active
BOP1 | 1.2 | active
SPTBN2 | -0.565 | inactive
EDEM2 | -1.1 | active
METRN | -0.354 | inactive
CCL27 | 1.36 | active
IL33 | -1.33 | active
TBX3 | -0.651 | inactive
YTHDF1 | 0.525 | inactive
MRPL44 | -1.91 | active
ZNF362 | 1.53 | active
ZC3H7B | 1.67 | active
GALR2 | -1.31 | active
TNFSF9 | -0.115 | inactive
ENHO | 0.619 | inactive
SLC7A3 | -0.86 | inactive
OR2T1 | -0.809 | inactive

9 consecutive entries already listed, for reference:
gene | z-score vs non-targeting control | outcome
TBX3 | -0.651 | inactive
YTHDF1 | 0.525 | inactive
MRPL44 | -1.91 | active
ZNF362 | 1.53 | active
ZC3H7B | 1.67 | active
GALR2 | -1.31 | active
TNFSF9 | -0.115 | inactive
ENHO | 0.619 | inactive
SLC7A3 | -0.86 | inactive

The listing continues.
gene | z-score vs non-targeting control | outcome
RPP40 | 0.132 | inactive
PABPC4 | -1.01 | active
SHISA4 | -2.93 | active
EPCIP | -0.55 | inactive
DHH | 1.65 | active
SLC35F1 | 0.388 | inactive
FAM178B | 0.55 | inactive
SLC2A2 | 0.719 | inactive
CASP7 | 1.52 | active
ZCCHC9 | -0.94 | inactive
TACC3 | 0.0624 | inactive
MEP1A | 0.592 | inactive
GNA12 | -1.44 | active
INSIG2 | 0.479 | inactive
RHOBTB3 | 0.965 | inactive
HERC2P3 | 1.16 | active
PGD | -2.43 | active
RXRA | 0.88 | inactive
CDNF | 0.663 | inactive
SNTG2 | -2.88 | active
PCDHA13 | -0.504 | inactive
CFH | -0.907 | inactive
DEFB127 | 1.21 | active
DGKZ | -1.96 | active
HLA-A | -0.163 | inactive
SMIM11 | -0.0731 | inactive
GCSAML | -2.36 | active
ELFN1 | -3.67 | active
METAP1D | 1.14 | active
B3GLCT | -0.392 | inactive
C1orf56 | 2.17 | active
SIRT1 | 1.12 | active
POGLUT3 | 0.502 | inactive
KLHL15 | -1.97 | active
OR2M7 | -1.03 | active
